A mixed list of measured activities; the numbers were collected in NIAID ChemDB.

All rows: whole-cell or culture tests; agent: Mycobacterium avium complex; measure: MIC

Conditions beyond the fields shown may differ between rows.

structure,strain,result
CCCNC(=O)OCCn1sc2ccccc2c1=S,AN2,16 µg/mL
O=C1c2cc(F)ccc2-n2c1nc1ccccc1c2=O,19075,0.25 µg/mL
CC1(C)N=C(N)N=C(N)N1OCCCOc1cc(Cl)c(Cl)cc1Cl,DW19,0.5 µg/mL
CC[C@H]1OC(=O)[C@H](C)[C@@H](OC2C[C@@](C)(OC)[C@@H](O)[C@H](C)O2)[C@H](C)[C@@H](O[C@@H]2O[C@H](C)C[C@H](N(C)C)[C@H]2O)C(C)(O)C[C@@H](C)/C(=N\OCCCOc2ccccc2)[C@H](C)[C@@H](O)[C@]1(C)O,20039,1.56 µg/mL
O=C1c2c(Cl)cccc2-n2c1nc1ccccc1c2=O,19075,5 µg/mL
O=c1c2ccccc2sn1CCO,AN2,>32 µg/mL
COc1ccccc1CSc1ccccn1,NJ211,>12.8 µg/mL
CO[C@H]1/C=C/O[C@@]2(C)Oc3c(C)c(O)c4c(O)c(c5c(c4c3C2=O)NC2(CCN(CC(C)C)CC2)N=5)=NC(=O)/C(C)=C\C=C\[C@H](C)[C@H](O)[C@@H](C)[C@@H](O)[C@@H](C)[C@H](OC(C)=O)[C@@H]1C,101,0.25 µg/mL
O[C@H](c1cc2ccc(C(F)(F)F)cc2c2cc(C(F)(F)F)ccc12)[C@H]1CCCCN1,5 clinical isolates,2 µg/mL
O=C1c2cc(/C=C/CCCCO)ccc2-n2c1nc1ccncc1c2=O,19075,5 µg/mL
NC1=C(Cl)C(=O)c2ccccc2C1=O,5 clinical isolates,>16 µg/mL
Nc1ccc(S(=O)(=O)c2ccc(N)cc2)cc1,LPR,32 µg/mL
CC[C@H]1OC(=O)[C@H](C)[C@@H](OC2C[C@@](C)(OC)[C@@H](O)[C@H](C)O2)[C@H](C)[C@@H](O[C@@H]2O[C@H](C)C[C@H](N(C)C)[C@H]2O)C(C)(O)C[C@@H](C)/C(=N\OCCCC2CCCCC2)[C@H](C)[C@@H](O)[C@]1(C)O,20092,12.5 µg/mL
CC(C)NC(=O)OCCn1sc2ccccc2c1=O,ISS 486,16 µg/mL
O[C@@H](c1cc2ccc(C(F)(F)F)cc2c2cc(C(F)(F)F)ccc12)[C@H]1CCCCN1,101 (clarithromycin-resistant),4 µg/mL
c1c[nH]c(Sc2ncnc3nc[nH]c23)n1,NJ211,>12.8 µg/mL
C[C@@H]1CN(c2c(F)c(N)c3c(=O)c(C(=O)O)cn(C4CC4)c3c2F)C[C@H](C)N1,Isolate 90-0731,1 µg/mL
CCCCCCCCCCCCCCO/N=C1\[C@H](C)CC(C)(O)[C@H](O[C@@H]2O[C@H](C)C[C@H](N(C)C)[C@H]2O)[C@@H](C)[C@H](OC2C[C@@](C)(OC)[C@@H](O)[C@H](C)O2)[C@@H](C)C(=O)O[C@H](CC)[C@@](C)(O)[C@H](O)[C@H]1C,20039,50 µg/mL
COc1cccc2c(=O)n3c(nc12)C(=O)c1cc(I)ccc1-3,19075,1 µg/mL
CCc1nc(N)nc(N)c1-c1ccc(Cl)cc1,DW21,32 µg/mL
CC1(C)S[C@@H]2[C@H](NC(=O)C(C(=O)O)c3ccccc3)C(=O)N2[C@H]1C(=O)O,CIPT 140310012,25 µg/mL
COc1ccc(/C(C)=N/NC(N)=S)cc1,116,16 µg/mL
C[C@@H](O)[C@H]1C(=O)N2C(C(=O)O)=C(SCCN=CN)C[C@H]12,CIPT 140310005,10 µg/mL
CO[C@H]1/C=C/O[C@@]2(C)Oc3c(C)c(O)c4c(=O)c(c5oc6cc(N7CCN(CC(C)C)CC7)cc(=O)c6nc5c4c3=C2O)NC(=O)/C(C)=C\C=C\[C@H](C)[C@H](O)[C@@H](C)[C@@H](O)[C@@H](C)[C@H](OC(C)=O)[C@@H]1C,N-444,0.025 µg/mL
CC1(C)S[C@@H]2[C@H](NC(=O)[C@H](C(=O)[O-])c3ccsc3)C(=O)N2[C@H]1C(=O)[O-].[Na+].[Na+],CIPT 140310003 (smooth),50 µg/mL
Cc1ccc(Sc2ncccn2)cc1,NJ211,>12.8 µg/mL
CC(C)(C)NC(=O)OCCn1sc2ccccc2c1=O,ATCC 15769,>32 µg/mL
CCCCCCCCO[C@@H]1O[C@H]([C@@H](COC)O[C@H]2O[C@H](COC(=O)c3ccccc3)[C@@H](OC(=O)c3ccccc3)[C@@H]2OC(=O)c2ccccc2)[C@H](OC)[C@H]1OC,NJ3404,>128 µg/mL
Cc1ccc(CSc2ncnc3nc[nH]c23)cc1,NJ211,>12.8 µg/mL
CC[C@H]1OC(=O)[C@H](C)[C@@H](O[C@H]2C[C@@](C)(OC)[C@@H](O)[C@H](C)O2)[C@H](C)[C@@H](O[C@@H]2O[C@H](C)C[C@H](N(C)C)[C@H]2O)[C@](C)(O)C[C@@H](C)CN(C)[C@H](C)[C@@H](O)[C@]1(C)O,T,8 µg/mL
O=C(N1CCC(CN=c2cc3n(-c4ccc(Cl)cc4)c4ccccc4nc-3cc2Nc2ccc(Cl)cc2)CC1)N1CC1,109,≥16 µg/mL
CC[C@H]1OC(=O)[C@H](C)[C@@H](O[C@H]2C[C@@](C)(OC)[C@@H](O)[C@H](C)O2)[C@H](C)[C@@H](O[C@@H]2O[C@H](C)C[C@H](N(C)C)[C@H]2O)[C@](C)(OC)C[C@@H](C)C(=O)[C@H](C)[C@@H](O)[C@]1(C)O,Isolate 90-0727,2 µg/mL
CN[C@@H]1[C@H](O[C@H]2[C@H](O[C@H]3[C@H](O)[C@@H](O)[C@H](N=C(N)N)[C@@H](O)[C@@H]3N=C(N)N)O[C@@H](C)[C@]2(O)C=O)O[C@@H](CO)[C@H](O)[C@H]1O,N-951 (HIV+),4 µg/mL
CC[C@H]1OC(=O)[C@H](C)[C@@H](OC2C[C@@](C)(OC)[C@@H](O)[C@H](C)O2)[C@H](C)[C@@H](O[C@@H]2O[C@H](C)C[C@H](N(C)C)[C@H]2O)C(C)(O)C[C@@H](C)/C(=N\OCCCCOc2ccccc2)[C@H](C)[C@@H](O)[C@]1(C)O,20092,12.5 µg/mL
Cc1ccc2c(c1)C(=O)c1nc3ccccc3c(=O)n1-2,19075,5 µg/mL
CCCCNC(=O)OCCn1sc2ccccc2c1=O,ATCC 15769,16 µg/mL
CC(C)N=C(N)/N=C(\N)NOCCCOc1cc(Cl)c(Cl)cc1Cl,ATCC35801,32 µg/mL
CCN(CCN(C)C)c1ccc2nc3n(c(=O)c2c1)-c1ccc(Cl)cc1C3=O,19075,5 µg/mL
CO[C@H]1/C=C/O[C@@]2(C)Oc3c(C)c(O)c4c(=O)c(c5oc6cc(N7CCN(CC(C)C)CC7)cc(=O)c6nc5c4c3=C2O)NC(=O)/C(C)=C\C=C\[C@H](C)[C@H](O)[C@@H](C)[C@@H](O)[C@@H](C)[C@H](OC(C)=O)[C@@H]1C,N-962 (HIV+),0.05 µg/mL
CCCCCCO/N=C1\[C@H](C)CC(C)(O)[C@H](O[C@@H]2O[C@H](C)C[C@H](N(C)C)[C@H]2O)[C@@H](C)[C@H](OC2C[C@@](C)(OC)[C@@H](O)[C@H](C)O2)[C@@H](C)C(=O)O[C@H](CC)[C@@](C)(O)[C@H](O)[C@H]1C,20096,6.25 µg/mL
CCCCNC(=O)OCCn1sc2ccccc2c1=S,ISS 486,4 µg/mL
COc1cccc2c1n([O-])c1cccc(OC)c1[n+]2=O,101,16 µg/mL
COc1cc([N+](=O)[O-])c2nccc(C=O)c2c1F,5 clinical isolates,>16 µg/mL
OCCn1sc2ccccc2c1=S,AN2,8 µg/mL
CC[C@H]1OC(=O)[C@H](C)[C@@H](OC2C[C@@](C)(OC)[C@@H](O)[C@H](C)O2)[C@H](C)[C@@H](O[C@@H]2O[C@H](C)C[C@H](N(C)C)[C@H]2O)C(C)(O)C[C@@H](C)/C(=N\OCC2CCCCC2)[C@H](C)[C@@H](O)[C@]1(C)O,20092,>50 µg/mL
CCNC(=O)[C@@H](NC(=O)Cc1ccccc1)[C@@H]1N[C@@H](C(=O)NCCNC(=O)[C@@H]2N[C@@H]([C@H](NC(=O)Cc3ccccc3)C(=O)NCC)SC2(C)C)C(C)(C)S1,CIPT 140310003 (rough),30 µg/mL
COc1cccc2c1[n+]([O-])c1cccc(O)c1[n+]2[O-],101,8 µg/mL
CC[C@H]1OC(=O)[C@H](C)[C@@H](OC2C[C@@](C)(OC)[C@@H](O)[C@H](C)O2)[C@H](C)[C@@H](O[C@@H]2O[C@H](C)C[C@H](N(C)C)[C@H]2O)C(C)(O)C[C@@H](C)/C(=N\OCCOc2ccccc2)[C@H](C)[C@@H](O)[C@]1(C)O,20092,12.5 µg/mL
CCCNC(=O)OCCn1sc2ccccc2c1=O,AN1,16 µg/mL
O=C1c2cc(F)ccc2-n2c1nc1cc(F)c(F)cc1c2=O,19075,0.13 µg/mL
CC(C)NC(=O)OCCn1sc2ccccc2c1=S,ATCC 15769,8 µg/mL
O=C1c2cc(Br)ccc2-n2c1nc1ccncc1c2=O,101,<0.2 µg/mL
CCCCCCCCO[C@@H]1O[C@H]([C@@H](CO)O[C@H]2O[C@H](CO)[C@@H](O)[C@@H]2O)[C@H](O)[C@H]1O,NJ211,>128 µg/mL
CC(C)N=C(N)/N=C(\N)Nc1ccc(Cl)cc1,FAR,64 µg/mL
CCCCCCCCCCO/N=C1\[C@H](C)CC(C)(O)[C@H](O[C@@H]2O[C@H](C)C[C@H](N(C)C)[C@H]2O)[C@@H](C)[C@H](OC2C[C@@](C)(OC)[C@@H](O)[C@H](C)O2)[C@@H](C)C(=O)O[C@H](CC)[C@@](C)(O)[C@H](O)[C@H]1C,20092,25 µg/mL
COc1ccc(OC)c(Sc2ncnc3nc[nH]c23)c1,NJ211,>12.8 µg/mL